Compound potency records, mixed from different reports. Data source: NIAID ChemDB in PubChem.

All rows: whole-cell or culture tests; agent: HIV-1; method: syncytia; measure: EC50

Blank or dashed fields: not listed here. Conditions beyond the fields shown may differ between rows. ECn is the concentration giving n% inhibition of infection, replication or growth.

SMILES | strain | cells | changes | result
Cc1cn([C@H]2C[C@H](N=[N+]=[N-])[C@@H](CO)O2)c(=O)[nH]c1=O | IIIB TSAO-T(RT-E138K) | CEM | RT-E138K | 0.009 µM
C[C@H](COc1cc(N)nc(N)n1)OCP(=O)(O)O | Clinical isolate HA20.17 | CEM | RT-A62V V75I F77L Q151M M184V | 4.35 µg/mL
Cc1cn([C@@H]2O[C@H](CO[Si](C)(C)C(C)(C)C)[C@@]3(OS(=O)(=O)C=C3N)[C@H]2O[Si](C)(C)C(C)(C)C)c(=O)[nH]c1=O | IIIB | CEM | RT-Y181C | 3 µM
Cc1cn([C@H]2C[C@H](N=[N+]=[N-])[C@@H](COP(=O)(O)OCc3ccc(C(=O)OC(C)(C)C)cc3)O2)c(=O)[nH]c1=O | GB8 | JM |  | <1.88 µM
Cc1cn([C@H]2C[C@H](N=[N+]=[N-])[C@@H](CO)O2)c(=O)[nH]c1=O | HXB2 | CEM | RT-M41L T215Y | ≥25 µg/mL
COC(=O)c1ccc(COP(=O)(O)OC[C@H]2O[C@@H](n3cc(C)c(=O)[nH]c3=O)C[C@@H]2N=[N+]=[N-])cc1 | IIIB | C8166 |  | 0.04 µM
O=C(CCCCCCCCCCC(=O)Nc1cc(S(=O)(=O)O)cc2cc(S(=O)(=O)O)cc(O)c12)Nc1cc(S(=O)(=O)O)cc2cc(S(=O)(=O)O)cc(O)c12 | IIIB | MOLT-4 |  | 47 µM
Cc1cn([C@@H]2O[C@H](CO[Si](C)(C)C(C)(C)C)[C@@]3(OS(=O)(=O)C=C3N)[C@H]2O[Si](C)(C)C(C)(C)C)c(=O)[nH]c1=O | IIIB | CEM |  | 0.03 µM
Cc1cn([C@H]2C[C@H](N=[N+]=[N-])[C@@H](COP(=O)(OCc3ccccc3)OCc3ccccc3)O2)c(=O)[nH]c1=O | IIIB | C8166 |  | 0.08 µM
Nc1ccn([C@H]2CC[C@@H](CO)O2)c(=O)n1 | IIIB | CEM |  | 0.04 µM
Nc1ncnc2c1ncn2CCOCP(=O)(O)O | IIIB TIBO R82913 STR-2 (RT K103N) | CEM | RT-K103N | 10 µM
COC(=O)[C@H](C)NP(=O)(OC[C@@H]1C=C[C@H](n2cc(C)c(=O)[nH]c2=O)O1)Oc1ccccc1 | IIIB | CEM |  | 0.07 µM
Nc1ncnc2c1ncn2CCOCP(=O)(O)O | IIIB | CEM |  | 7 µM
Cc1cn([C@H]2C[C@H](N=[N+]=[N-])[C@@H](CO)O2)c(=O)[nH]c1=O | IIIB | CEM |  | 0.002 µM
Cc1occc1C(=S)Nc1ccc(Cl)c(/C=N/OC(C)(C)C)c1 | IIIB | CEM | RT-E138K | 0.075 µg/mL
O=c1[nH]cnc2c1ncn2[C@H]1CC[C@@H](CO)O1 | HXB2 | CEM |  | 1.7 µg/mL
CCn1c(=O)c(C)cn([C@@H]2O[C@H](CO[Si](C)(C)C(C)(C)C)C3(OS(=O)(=O)C=C3N)[C@H]2O[Si](C)(C)C(C)(C)C)c1=O | IIIB TIBO R82150-resistant (RT L100I) | CEM | RT-L100I | 0.09 µM
CC(C)=CCN1Cc2cc(Cl)cc3[nH]c(=S)n(c23)C[C@@H]1C | IIIB | CEM |  | 0.02 µg/mL
Cc1cn([C@@H]2O[C@H](CO[Si](C)(C)C(C)(C)C)C3(OS(=O)(=O)C=C3N)[C@H]2O[Si](C)(C)C(C)(C)C)c(=O)n(C)c1=O | IIIB | CEM | RT-E138K | >75 µM
Cc1c(N)nc(N)nc1OCCOCP(=O)(O)O | Clinical isolate C20 | CEM | RT-M41L D67N V118I M184V L210W T215Y | 1 µg/mL
CC(C)Nc1cccnc1N1CCN(C(=O)c2cc3ccccc3[nH]2)CC1 | IIIB | CEM |  | 0.08 µM
Cc1cn([C@@H]2O[C@H](CO[Si](C)(C)C(C)(C)C)C3(OS(=O)(=O)C=C3N)[C@H]2O[Si](C)(C)C(C)(C)C)c(=O)n(C)c1=O | IIIB | CEM | RT-E138K | >50 µg/mL
Cc1cn([C@H]2C[C@H](N=[N+]=[N-])[C@@H](CO)O2)c(=O)[nH]c1=O | IIIB-BHAP)(0.1)(RT-L100I | CEM | RT-L100I | 0.008 µM
CCOCn1c(Sc2ccccc2)c(CC)c(=O)[nH]c1=O | IIIB | CEM | RT-Y181C | 0.72 µM
CCOC(=O)c1ccc(COP(=O)(O)OC[C@H]2O[C@@H](n3cc(C)c(=O)[nH]c3=O)C[C@@H]2N=[N+]=[N-])cc1 | GB8 | JM |  | <0.019 µM
Cc1ccnc2c1NC(=O)c1cccnc1N2C1CC1 | HXB2 | CEM | RT-M41L T215Y | 0.2 µg/mL
Nc1ccn([C@H]2CC[C@@H](CO)O2)c(=O)n1 | IIIB-BHAP)(0.1)(RT-L100I | CEM | RT-L100I | 0.05 µM
Cc1occc1C(=S)Nc1ccc(Cl)c(/C=N/OC(C)(C)C)c1 | HXB2 | CEM | RT-M41L T215Y | 0.03 µg/mL
Cc1occc1C(=S)Nc1ccc(Cl)c(C(=O)OC2CCCC2)c1 | IIIB | CEM |  | 0.005 µg/mL
Nc1ncnc2c1ncn2CCOCP(=O)(O)O | Clinical isolate C19 | CEM | RT-M41L V118I L210W T215Y | 25 µg/mL
O=S(=O)(O)c1cc(NS(=O)(=O)c2ccc(-c3ccc(S(=O)(=O)Nc4cc(S(=O)(=O)O)c5cccc(S(=O)(=O)O)c5c4)cc3)cc2)cc2c(S(=O)(=O)O)cccc12 | IIIB | MOLT-4 |  | 37 µM
Cc1cn([C@H]2C[C@H](N=[N+]=[N-])[C@@H](COP(=O)(O)O)O2)c(=O)[nH]c1=O | IIIB | C8166 |  | 0.008 µM
Nc1ccn([C@H]2CC[C@@H](CO)O2)c(=O)n1 | IIIB TIBO R82913 STR-B22 (RT L100I Y188H) | CEM | RT-L100I Y188H | 0.014 µM
COC(=O)[C@H](C)NP(=O)(OC[C@@H]1O[C@H](n2ccc(N)nc2=O)CS1)Oc1ccccc1 | IIIB | CEM |  | 2.5 µM

The first 2 rows once more:

SMILES	strain	cells	changes	result
Cc1cn([C@H]2C[C@H](N=[N+]=[N-])[C@@H](CO)O2)c(=O)[nH]c1=O	IIIB TSAO-T(RT-E138K)	CEM	RT-E138K	0.009 µM
C[C@H](COc1cc(N)nc(N)n1)OCP(=O)(O)O	Clinical isolate HA20.17	CEM	RT-A62V V75I F77L Q151M M184V	4.35 µg/mL